The structures appear in SMILES notation. The list shows a part of the results, in another mix than the full data. Activity calls are given as the source filed them. Calls come from the whole dose curve; as a rule, active = well fitted inhibition curve with a large enough effect; inconclusive = small, poorly fitted or top-dose-only effect; inactive = flat fitted curve, though single readings scatter.

Amino acid sequences for entries named in this document (tags omitted). Residues count along the entry.
UniProt P25779, 123-467 limits assumed: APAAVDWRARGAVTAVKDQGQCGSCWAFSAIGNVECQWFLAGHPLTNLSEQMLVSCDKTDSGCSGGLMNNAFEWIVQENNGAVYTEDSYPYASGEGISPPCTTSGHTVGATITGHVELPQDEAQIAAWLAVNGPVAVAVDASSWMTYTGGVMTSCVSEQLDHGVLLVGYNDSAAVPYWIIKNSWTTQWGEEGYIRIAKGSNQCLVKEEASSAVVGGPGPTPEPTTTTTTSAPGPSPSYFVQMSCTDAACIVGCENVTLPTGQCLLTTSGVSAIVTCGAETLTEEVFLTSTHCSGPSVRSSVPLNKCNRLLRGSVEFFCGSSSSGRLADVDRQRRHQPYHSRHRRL

The target of the assay is Cruzipain (Trypanosoma cruzi) (UniProt P25779). The experiment in a line: qHTS Assay for Promiscuous and Specific Inhibitors of Cruzain (with detergent). Note: nearly all actives have a fitted effect of over 40% in size. The note with it: purified cruzain, Z-FR-AMC fluorescence, 0.01% Triton. The method, then:
Cruzain (3.4.22.51) is a cysteine protease from the tropical parasite Trypanosoma cruzi. Dual qHTS experiment was performed against the NCGC compound collection in order to 1) identify novel inhibitors of the enzyme and 2) profile the compound collection for promiscuous inhibitors operating via colloidal aggregation (by performing detergent-free and detergent-containing comparison screens). Cruzain was assayed by the use of fluorogenic coumarin-based substrate Z-FR-AMC: proteolytic cleavage releases AMC, whose fluorescence is measured at 360 nm excitation and 450 nm emission. Purified cruzain was supplied by the labs of Prof. James McKerrow and Brian Shoichet, UC San Francisco.
This assay had 0.01% Triton X-100 concentration. See also releated assay "qHTS Assay for Promiscuous and Specific Inhibitors of Cruzain (without detergent)" with 0.00005% Triton X-100.
See following references for additional details:
Assay Provider: Shoichet, Brian; University of California, San Fancisco
Screening Center PI: Austin, C.P.
Screening Center: NIH Chemical Genomics Center [NCGC]
Buffer: 100 mM Sodium Acetate, pH 5.5, 5 mM DTT, Triton X-100 concentration: 0.01%.
Buffer in columns 3 and 4 as negative control (no enzyme).
Substrate solution: 2 uM final concentration of Z-FR-AMC (catalog number I-1160, Bachem) dispensed throughout the plate.
Enzyme: 1.5 nM Cruzain final concentration in columns 1, 2, 5-48. Column 1 is neutral (100% activity). Column 2 contained titration of covalent inhibitor K11777, starting concentration 1 mM, then 1:2 dilution in duplicate).
Three uL of enzyme or buffer were dispensed to 1536-well Greiner black solid bottom plates. Compounds and controls (23 nL) were transferred via Kalypsys PinTool. The plates were incubated for 15 min at room temperature, and then 1 uL of substrate solution was added to start the reaction. The plates were immediately transferred to and read 4 times every 30 seconds for 2 min on ViewLux High-throughput CCD imager (Perkin-Elmer) using 360 nm excitation and 450 nm emission fluorescence protocol. The fluorescence intensity difference between the third and the first time points (time lapse of 60 seconds) was used to compute reaction progress.
For the compound `O=C(OCCN1CCN(CCOCc2ccccc2)CC1)C(O)(c1ccccc1)c1ccccc1`, the max response, negative = inhibition is inactive: 1.75%. For the compound `CP(=O)(Nc1ccccc1F)Oc1ccccc1` (stereo not drawn), the max response, negative = inhibition is inactive: 0.0998%. As for `CC(C)c1ccc(OP(C)(=O)Nc2ccc(SC(F)(F)F)cc2)cc1` (stereo not drawn), the figure is inactive: -9.76%; as for `O=P1(Nc2nc3ccc(Cl)cc3s2)COc2ccccc2O1` (stereo not drawn), inactive: 1.1%; as for `CP(=O)(Nc1ccccc1)Oc1ccc(F)cc1` (stereo not drawn), inactive: 3.71%. As for `COC(=O)c1cc2c(s1)N=C(c1ccccc1)N(C)P2(=O)N1CCOCC1` (stereo not drawn), the figure is inactive: -0.686%. Under `CC(=O)NC(SC(=S)N(CC(C)C)CC(C)C)C(Cl)(Cl)Cl` (stereo not drawn) stands inactive: -19.6%. On to `CN(C(=O)Cc1ccc(Cl)c(Cl)c1)[C@@H]1CCCC[C@@H]1N1CCCC1`, for which the max response, negative = inhibition is inactive: 2%. As for `CCN(CC)CCCOC(=O)C(O)(c1ccccc1)C1CCCCC1` (stereo not drawn), the figure is inactive: -0.916%; as for `CCC(=O)N1C2C3N(C(=O)CC)C1C1N(C(=O)CC)C(C(N1C(=O)CC)N3C(=O)CC)N2C(=O)CC`, inactive: 2.86%. On to `CCOC(=O)c1ccc(NP(C)(=O)Oc2ccc(F)cc2)cc1` (stereo not drawn), for which the max response, negative = inhibition was inactive: -1.08%.

On to `CCC(C)(OO)OOC(C)(CC)OO` (stereo not drawn), for which the max response, negative = inhibition was inactive: -4.58%. Regarding `Cc1cccc([N+](=O)[O-])c1[N+](=O)[O-]`, the max response, negative = inhibition was inactive: 1.87%. Under `CCOC(=O)NC(Sc1ccccc1)C(Cl)(Cl)Cl` (stereo not drawn) stands inactive: -7.15%; under `C(Cc1nn[nH]n1)Cc1nn[nH]n1`, inactive: 0.866%; under `O=C(OC1CN2CCC1CC2)c1cccc(Cl)c1` (stereo not drawn), inactive: -1.55%. Consider `CC(=O)NC(SC(=S)N(C)C)C(Cl)(Cl)Cl` (stereo not drawn), for which the max response, negative = inhibition was inactive: -1.58%. `Cc1ccc([N+](=O)[O-])c([N+](=O)[O-])c1`: the max response, negative = inhibition was inactive: 7.72%.

For the compound `Cc1c([N+](=O)[O-])cccc1[N+](=O)[O-]`, the max response, negative = inhibition was inactive: 0.114%. `CN(C)CCOC(=O)C(O)(c1ccccc1)C1CCCCC1` (stereo not drawn): the max response, negative = inhibition was inactive: 1.9%.

For `Cc1cc([N+](=O)[O-])cc([N+](=O)[O-])c1O`, the max response, negative = inhibition was inactive: -6.67%. `[N-]=[N+]=Nc1ccc([As](=O)(O)O)cc1`: the max response, negative = inhibition was inactive: 2.81%.

Consider `COc1ccc(OP(C)(=O)Nc2cccc(Br)c2)cc1` (stereo not drawn), for which the max response, negative = inhibition is inactive: -1.21%. For `Cc1ccccc1NP(C)(=O)Nc1ccccc1C`, the max response, negative = inhibition was inactive: 2.33%. `CCN(CCCl)Cc1ccccc1C`: the max response, negative = inhibition is inactive: -1.7%. As for `[NH4+].[O-][Cl+3]([O-])([O-])[O-]`, the figure is inactive: 5.86%; as for `C[C@@H](O)COc1ccc([As](=O)(O)O)cc1N`, inactive: 2.2%. As to `NNC(NN)NN.n1nc(-c2nn[nH]n2)n[nH]1`, the max response, negative = inhibition was inactive: -2.63%. Under `CN1CCC[C@H](OC(=O)C(c2ccccc2)c2ccccc2)C1` stands inactive: -0.505%.

For the compound `CP(=O)(Nc1ccc2c(c1)OCCO2)Oc1ccccc1` (stereo not drawn), the max response, negative = inhibition was inactive: 2.25%. As for `CCOP(C)(=S)SCC(=O)NC(C)(CC)C(=O)O` (stereo not drawn), the figure is inactive: 7.71%. Under `c1nnnn1CCn1cnnn1` stands inactive: 5.4%; under `CCOP(=O)(CC)OCC`, inactive: 0.0254%; under `CC(C)C(=O)NC(Sc1ccccc1)C(Cl)(Cl)Cl` (stereo not drawn), inactive: 0.161%.

For `O=P(Nc1nccs1)(c1ccccc1)c1ccccc1`, the max response, negative = inhibition was inactive: 0.471%. Under `CN(C)C(=O)OCCc1n(C)cc[n+]1C` stands inactive: 0.829%; under `O=C(CO)Nc1ccc([As](=O)(O)O)cc1`, inactive: 0.804%. As for `CC(=O)C1=CCCC2CCC1N2` (stereo not drawn), the figure is inactive: 2.61%. Under `CC1CCN(C(=O)Oc2c(Cl)cc(Cl)c3cccnc23)CC1` stands inactive: -7.87%. With `CC(C)(C)c1ccc(OP(C)(=O)O)cc1`, the max response, negative = inhibition is inactive: 5.01%. On to `CP(=O)(Nc1ccc(Cl)cc1)Oc1ccc(F)cc1` (stereo not drawn), for which the max response, negative = inhibition is inactive: -3.12%. Regarding `O=[N+]([O-])c1cccc2n[nH]nc12`, the max response, negative = inhibition was inactive: -1.12%.

As for `CC(=O)N1C2C3N(C(C)=O)C1C1N(C(C)=O)C(C(N1C(C)=O)N3C(C)=O)N2C(C)=O`, the max response, negative = inhibition was inactive: 3.73%. As for `COc1ccccc1OP(C)(=O)Nc1c(C)n(C)n(-c2ccccc2)c1=O` (stereo not drawn), the figure is inactive: -9.34%. Take `OCCSCCO`: the max response, negative = inhibition is inactive: 1.57%. Consider `CP(=O)(Oc1ccccc1)N1CCOC1=O` (stereo not drawn), for which the max response, negative = inhibition was inactive: -0.643%. As for `CCc1nc2c(n1)c1c(non1O)c1c2no[n+]1[O-]`, the figure is inactive: -1%. As for `CCN(CC)CC(O)COC(=O)C(O)(c1ccccc1)C1CCCCC1` (stereo not drawn), the figure is inactive: 3.24%; as for `COc1ccc(OP(C)(=O)Nc2ccc(Br)cc2)cc1` (stereo not drawn), inactive: -1.92%.

Regarding `N#[O+].[C-]#N.[C-]#N.[C-]#N.[C-]#N.[C-]#N.[Fe+2].[Na+].[Na+]`, the max response, negative = inhibition is inactive: -3.93%. Regarding `CCOC(=O)c1ccc(NP(C)(=O)Oc2ccc(Cl)cc2)cc1` (stereo not drawn), the max response, negative = inhibition was inactive: -3.03%. For `CP(=O)(OC12CC3CC(CC(C3)C1)C2)OC12CC3CC(CC(C3)C1)C2`, the max response, negative = inhibition is inactive: 1.74%. Turning to `CCN(N=Nc1nonc1N)c1nonc1N`, the max response, negative = inhibition was inactive: -4.48%. `C(Cc1nn[nH]n1)c1nn[nH]n1`: the max response, negative = inhibition was inactive: 0.938%.

As to `Cc1nc2ccc3ccccc3c2o1.O=[N+]([O-])c1cc([N+](=O)[O-])c(O)c([N+](=O)[O-])c1`, the max response, negative = inhibition was inactive: -8.23%. Take `[N-]=[N+]=NCC(O)CN=[N+]=[N-]` (stereo not drawn): the max response, negative = inhibition is inactive: 3.3%. Take `Cc1cc(SC(NC(=O)c2ccc(F)cc2)C(Cl)(Cl)Cl)ncn1` (stereo not drawn): the max response, negative = inhibition was inactive: -5.35%. Under `CCOP(=O)(Nc1ccccc1)OCC` stands inactive: 6.97%; under `COc1ccccc1OP(C)(=O)Nc1ccc(C)c(C)c1` (stereo not drawn), inactive: 3.33%. As to `CN(C(=O)Cc1ccc(Cl)c(Cl)c1)[C@H]1CCCC[C@@H]1N1CCCC1`, the max response, negative = inhibition is inactive: -0.866% [middle of 6 runs]. As for `COc1ccc(OP(C)(=O)Nc2ccccc2Br)cc1` (stereo not drawn), the figure is inactive: 0.179%; as for `CP(=O)(Nc1ccccn1)Oc1ccccc1` (stereo not drawn), inactive: 0.465%; as for `COc1ccccc1OP(C)(=O)Nc1ccc(C)cc1C` (stereo not drawn), inactive: -0.0763%.

In the case of `NCC[C@@H](N)CSP(=O)(O)O`, the max response, negative = inhibition was inactive: 0.594%.

For the compound `CCc1ccc(OP(C)(=O)O)cc1`, the max response, negative = inhibition was inactive: 0.807%. Consider `Cc1c(NP(C)(=O)Oc2ccc(C(C)C)cc2)c(=O)n(-c2ccccc2)n1C` (stereo not drawn), for which the max response, negative = inhibition is inactive: 4.73%. Under `CC(C)CC(=O)NC(Sc1ccc(Cl)cc1)C(Cl)(Cl)Cl` (stereo not drawn) stands inactive: 0.536%; under `Oc1ccccc1CNc1ccccn1`, inactive: 2.97%.

Source of the values: PubChem BioAssay AID1478 (National Center for Advancing Translational Sciences (NCATS), 2009).
